Compound potency records, mixed from different reports. Data source: NIAID ChemDB in PubChem.

Shared fields: whole-cell or culture tests; species: HIV-1; measure: inhibition

Inhibition is in % at the dose shown (toxicity tests: loss of growth or viability). Lines come from different laboratories, so protocols vary.

Cc1cn([C@H]2C[C@H](N=[N+]=[N-])[C@@H](CO)O2)c(=O)[nH]c1=O ; strain: LAV-1 ; cells: U-937 ; read by: virus yield ; tested at: 10 µM ; result: >100%
Cc1cn([C@H]2C[C@@H](N=[N+]=[N-])[C@@H](CO)O2)c(=O)[nH]c1=O ; strain: NL4-3 ; cells: Jurkat cells ; read by: luciferase ; setting: pseudotyped ; tested at: 711 µM ; result: 90%
NCC(=O)N1CCC[C@H]1C(=O)NCC(=O)NCC=O ; strain: IIIB ; cells: H9 ; read by: p24 ; tested at: 250 µg/mL ; result: 85.4%
CC(C)=CCOc1c2occc2cc2ccc(=O)oc12 ; strain: NL4-3 Recombinant VSV-pseudotyped ; cells: Jurkat cells ; read by: luciferase ; tested at: 25 µM ; result: 69%
CN=C1CN=C(c2ccc[nH]2)c2cc(Cl)ccc2N1 ; strain: IIIB ; cells: MOLT-4 ; read by: cytopathic effect / MTT ; tested at: 1 µM ; result: 100%
COc1cc(O)c2c(=O)oc3cc(O)cc(C)c3c2c1 ; strain: NL4-3 ; cells: PBMC ; read by: p24 / ELISA ; setting: 5 d ; tested at: 180 µM ; result: 100%
Nc1ncnc2nc[nH]c12 ; strain: IIIB ; cells: MOLT4 + MOLT-4 ; read by: p24 ; tested at: 254 µM ; result: >25%
CCc1cc(NCc2nc3c(Cl)ccc(Cl)c3o2)c(=O)[nH]c1C ; strain: Clinical isolate (RT K103R D67N K70R K219Q) ; mutations: RT-D67N K70R K103R K219Q ; cells: PBMC ; read by: p24 ; tested at: 0.4 µM ; result: 90%
c1ncc2[nH]cnc2n1 ; strain: IIIB ; cells: MOLT4 + MOLT-4 ; read by: p24 ; tested at: 44 µM ; result: >25%
NC[C@@H]1O[C@H](O[C@H]2[C@@H](O)[C@H](O[C@@H]3[C@@H](O)[C@H](N)C[C@H](N)[C@H]3O[C@H]3O[C@H](CN)[C@@H](O)[C@H](O)[C@H]3N)O[C@@H]2CO)[C@H](N)[C@@H](O)[C@@H]1O ; cells: U1/HIV-1 + U1 ; read by: p24 / ELISA ; setting: chronic infection ; tested at: 2500 µM ; result: 85%
Nc1ncnc2c1ncn2[C@@H]1O[C@H](COP(=O)(O)OP(=O)(O)OP(=O)(O)O)[C@@H](O)[C@H]1O ; strain: IIIB ; cells: MOLT4 + MOLT-4 ; read by: p24 ; tested at: 1826 µM ; result: >25%
COc1c(C(=O)NCc2ccc(C)cc2)ccc2nc(-c3ccc([N+](=O)[O-])cc3)n(C)c(=O)c12 ; cells: TZM-bl ; read by: MTT ; tested at: 10 µM ; result: >0%
Cc1ccc(-c2ccc3c(c2)C=C(C(=O)Nc2ccc(C[N+](C)(C)C4CCOCC4)cc2)CCC3)cc1 ; strain: BaL ; cells: MAGI + MAGI-CCR5 ; read by: β-galactosidase ; tested at: 0.0057 µM ; result: 90%
COc1c(C(=O)NCc2ccc(C)cc2)ccc2c1C(=O)N(C)C(Cc1ccc([N+](=O)[O-])cc1)N2 ; cells: TZM-bl ; read by: MTT ; tested at: 10 µM ; result: 0%
O=C(OC[C@H]1O[C@@H](OC(=O)c2cc(O)c(O)c(O)c2)[C@H](O)[C@@H](OC(=O)c2cc(O)c(O)c(O)c2)[C@@H]1O)c1cc(O)c(O)c(O)c1 ; strain: IIIB ; cells: MOLT-3 ; read by: p24 ; tested at: 50 µg/mL ; result: 93%
CCN1c2ncccc2-c2nccn2-c2ccc(N(C)C)nc21 ; cells: C8166 ; read by: syncytia ; setting: 7 d ; tested at: 0.1 µM ; result: 100%
CCNc1cccnc1N1CCN(C(=O)c2cc3cc(OC)ccc3[nH]2)CC1 ; strain: Seropositive clinical isolate B ; cells: PBMC ; read by: MTT ; tested at: 1 µM ; result: 47%
CC(C)(C)NC(=O)[C@@H]1CN(Cc2cccnc2)CCN1C[C@@H](O)C[C@@H](Cc1ccccc1)C(=O)N[C@H]1c2ccccc2C[C@H]1O ; cells: CEM + CEM-SS ; read by: RT activity ; setting: 10 d ; tested at: 0.1 µM ; result: 100%
Nc1ncnc2c1ncn2[C@H]1CC[C@@H](CO)O1 ; strain: IIIB ; cells: CEM + CEM-SS ; read by: RT activity ; setting: 5 d ; tested at: 0.08 µM ; result: 50%
CC(C)=CCc1cc(-c2oc3cc(O)cc(O)c3c(=O)c2O)ccc1O ; cells: MOLT-4/OKM-1(HIV-1) + MOLT-4 ; read by: syncytia ; tested at: 20 µg/mL ; result: 100%
O=c1oc2ccccc2c2c1C(c1ccccn1)c1c(c3ccccc3oc1=O)O2 ; strain: 93IN101 ; cells: SupT1 ; read by: p24 / ELISA ; tested at: 100 µM ; result: 20%
NNC(=O)NN1C(=O)c2cc(S(=O)(=O)[O-])cc3c(N)c(S(=O)(=O)[O-])cc(c23)C1=O ; strain: LAV ; read by: RT activity ; tested at: 1740 µM ; result: 0%
CC[C@@]1(O)C(=O)OCc2c1cc1n(c2=O)Cc2cc3c([N+](=O)[O-])cccc3nc2-1 ; strain: IIIB ; cells: U-937 ; read by: p24 / ELISA ; tested at: 0.04 µM ; result: 80%
Cc1ccc(CNC(=O)c2ccc3nc(-c4ccco4)n(C)c(=O)c3c2O)cc1 ; cells: TZM-bl ; read by: MTT ; tested at: 10 µM ; result: >0%
CCOC(=O)[C@H](CS)NC(=O)CC[C@H](N)C(=O)O ; strain: IIIB ; cells: H9(HIV-1(IIIB)) + H9 ; read by: p24 ; tested at: 800 µM ; result: 80%
O=c1oc2ccccc2c2c1C(c1ccncc1)c1c(c3ccccc3oc1=O)O2 ; strain: 93IN101 ; cells: SupT1 ; read by: p24 / ELISA ; tested at: 100 µM ; result: 20%
CC[C@H](C)C(=O)O[C@@H]1C(=O)[C@@]2(OC(=O)C(C)C)[C@@]3(O)C[C@@]1(C)[C@H](CC(=O)OC)[C@@]3(C)[C@H]1CC[C@@]3(C)[C@H](c4ccoc4)OC(=O)C[C@]34O[C@]142 ; cells: SupT1 ; read by: luciferase ; setting: pseudotyped ; tested at: 20 µM ; result: 79.75%
CCCC(=O)O[C@H]1CN2CC[C@H](O)[C@@H]2[C@@H](O)[C@@H]1O ; strain: H9/HXB2 ; cells: JM ; read by: p24 / ELISA / cell fusion ; tested at: 1 µg/mL ; result: 39%
CNc1ncnc2nc[nH]c12 ; strain: IIIB ; cells: MOLT4 + MOLT-4 ; read by: p24 ; tested at: 388 µM ; result: >25%
Cc1ccnc2c1NC(=O)c1cccnc1N2C1CC1 ; strain: LAV-1 ; cells: HT4 + HT4-6C ; read by: syncytia ; tested at: 0.01 µM ; result: 19%
O=Nc1c(-c2c(O)[nH]c3ccccc23)[nH]c2ccccc12 ; cells: U1 ; read by: p24 ; tested at: 4 µM ; result: 58%
CC(C)(C)NC(=O)[C@@H]1CN(Cc2cccnc2)CCN1C[C@@H](O)C[C@@H](Cc1ccccc1)C(=O)N[C@H]1c2ccccc2C[C@H]1O ; cells: MAGI ; read by: β-galactosidase ; tested at: 5 µg/mL ; result: 10%
OC[C@H]1O[C@@H](n2cnc3cc(Cl)c(Cl)cc32)[C@H](O)[C@@H]1O ; strain: NL4-3 Recombinant VSV-pseudotyped ; cells: HeLa ; read by: luciferase ; tested at: 50 µM ; result: 65%
Nc1nc(Cl)nc2c1ncn2[C@H]1CC[C@@H](CO)O1 ; strain: HXBc2 ; cells: C8166 ; read by: RT activity ; tested at: 20 µM ; result: 43%
CCC[C@@]1(CCc2ccccc2)CC(O)=C([C@H](CC)c2cccc(NS(=O)(=O)c3ccc(C(F)(F)F)cn3)c2)C(=O)O1 ; strain: Isolate UJ00004 ; cells: PBMC ; read by: p24 ; tested at: 0.8 µM ; result: 90%
NC(=O)c1ncn([C@@H]2O[C@H](CO)[C@@H](O)[C@H]2O)c1N ; strain: IIIB ; cells: CEM + CEM-SS ; read by: RT activity ; setting: 16 h ; tested at: 250 µM ; result: 25%
CC1(C)Oc2ccc3ccc(=O)oc3c2[C@@H](OC(=O)C23CCC(C)(C(=O)O2)C3(C)C)[C@H]1OC(=O)C12CCC(C)(C(=O)O1)C2(C)C ; cells: Monocytes ; read by: p24 ; setting: 28 d ; tested at: 0.000016 µM ; result: 47.8%
Nc1c(S(=O)(=O)[O-])cc2c3c(cc(S(=O)(=O)[O-])cc13)C(=O)N(NC(=O)N/N=C\c1cccc(C=O)c1)C2=O.[Na+].[Na+] ; strain: LAV ; read by: RT activity ; tested at: 1760 µM ; result: 40%
CC(=O)N[C@H]1[C@H](OCCCCCCOC(=O)OC[C@H]2O[C@@H](n3cc(C)c(=O)[nH]c3=O)C[C@@H]2N=[N+]=[N-])O[C@H](CO)[C@@H](O)[C@@H]1O ; cells: CEM-113 + CEM/C113 ; read by: RT activity ; tested at: 20 µg/mL ; result: 90%
NCC(=O)N1CCC[C@H]1C(=O)NCC=O ; strain: IIIB ; cells: H9 ; read by: syncytia ; tested at: 250 µg/mL ; result: 100%
c1cc(CN2CCCNCCNCCCNCC2)ccc1CN1CCCNCCNCCCNCC1 ; strain: SW30 CLADE C R5X4 ; cells: PBMC ; read by: p24 ; tested at: 0.1 µM ; result: 3%
NC(N)=NCCC[C@H](N)C(=O)NCC(=O)N1CCC[C@H]1C(=O)NCC=O ; strain: ELI ; cells: HUT ; read by: p24 ; tested at: 250 µg/mL ; result: 0%
C[C@H]1O[C@@H](O[C@H]2[C@@H](O)C[C@H](O[C@H]3[C@@H](O)C[C@H](O[C@H]4CC[C@@]5(C)[C@H](CC[C@@H]6[C@@H]5C[C@@H](O)[C@]5(C)[C@@H](C7=CC(=O)OC7)CC[C@]65O)C4)O[C@@H]3C)O[C@@H]2C)C[C@H](O)[C@@H]1O ; strain: LAI ; cells: HeLa ; tested at: 0.1 µM ; result: 90%

The first 6 rows once more:

Cc1cn([C@H]2C[C@H](N=[N+]=[N-])[C@@H](CO)O2)c(=O)[nH]c1=O ; strain: LAV-1 ; cells: U-937 ; read by: virus yield ; tested at: 10 µM ; result: >100%
Cc1cn([C@H]2C[C@@H](N=[N+]=[N-])[C@@H](CO)O2)c(=O)[nH]c1=O ; strain: NL4-3 ; cells: Jurkat cells ; read by: luciferase ; setting: pseudotyped ; tested at: 711 µM ; result: 90%
NCC(=O)N1CCC[C@H]1C(=O)NCC(=O)NCC=O ; strain: IIIB ; cells: H9 ; read by: p24 ; tested at: 250 µg/mL ; result: 85.4%
CC(C)=CCOc1c2occc2cc2ccc(=O)oc12 ; strain: NL4-3 Recombinant VSV-pseudotyped ; cells: Jurkat cells ; read by: luciferase ; tested at: 25 µM ; result: 69%
CN=C1CN=C(c2ccc[nH]2)c2cc(Cl)ccc2N1 ; strain: IIIB ; cells: MOLT-4 ; read by: cytopathic effect / MTT ; tested at: 1 µM ; result: 100%
COc1cc(O)c2c(=O)oc3cc(O)cc(C)c3c2c1 ; strain: NL4-3 ; cells: PBMC ; read by: p24 / ELISA ; setting: 5 d ; tested at: 180 µM ; result: 100%